Results of unrelated studies side by side (data: NIAID ChemDB).

Shared fields: cytotoxicity tests; cells: MT-4; read-out: CC50

Conditions beyond the fields shown may differ between rows. An empty or dashed field is not shown. CCn: concentration that lowers growth or viability of the cells by n%.

| structure | method | result |
|---|---|---|
| CSc1ccc2c(C)nc(CCCCCCC(=O)c3ccccc3)n2n1 | - | 27 µM |
| CC(C)=CCN1Cc2cccc3[nH]c(=S)n(c23)C[C@@H]1C | - | ≥50 µM |
| CSc1nc(N)c(C)c(C(F)c2ccccc2)n1 | - | >25 µM |
| CSc1ccccc1C1CCCN1C(=O)C(CC(C)C)NC(=O)NCc1ccc(N)cc1 | ATP / luminescence | 40 µM |
| C1CNCCNCC(CCCC2CNCCNCCCNCCNC2)CNCCNC1 | - | 290 µM |
| COc1cc(C(=O)OC[C@H]2O[C@@H](Oc3ccc(O)c4cccc(O)c34)[C@H](O)[C@@H](O)[C@@H]2O)cc(OC)c1O | - | >100 µg/mL |
| C(CCC1CNCCNCCCNCCNC1)CCC1CNCCNCCCNCCNC1 | - | 200 µM |
| O=C(NCCCN1CCN(CCCNC(=O)c2cc3cc(O)c(O)cc3[nH]2)CC1)c1cc2cc(O)c(O)cc2[nH]1 | MTT | 176 µM |
| CC(C)[C@H]1C(=O)N[C@H](CO)Cc2ccccc2N1C | - | 1.3 µg/mL |
| Cc1ccnc(-c2cc(CN3CCCNCCNCCCNCC3)ccn2)c1 | - | 1.13 µM |
| COc1ccc2cc([C@H](C)C(=O)O)ccc2c1 | - | 1000 µM |
| CNC(=O)CSP(=O)(NCC(=O)OC)OC[C@@H]1CC[C@H](n2cnc3c(=O)[nH]cnc32)O1 | - | >10 µM |
| Nc1nc(N)c2ncn([C@H]3CC[C@@H](CO)O3)c2n1 | - | >500 µM |
| Cc1cn([C@H]2C[C@H](N=[N+]=[N-])[C@@H](CO)O2)c(=O)[nH]c1=O | MTT | 24 µg/mL |
| O=C(O)CSc1ccc2c(c1)c(=O)c1ccccc1n2C1CC1 | - | >400 µg/mL |
| O=c1[nH]cnc2c1ncn2[C@H]1CC[C@@H](CO)O1 | - | 568 µM |
| CSc1nc(N)c(C)c(C(=O)Cc2ccccc2)n1 | - | >25 µM |
| Cc1cn([C@H]2C[C@H](N=[N+]=[N-])[C@@H](CO)O2)c(=O)[nH]c1=O | - | >60 µM |
| CC(C)=CCc1cc([C@@H]2CC(=O)c3c(O)cc(O)cc3O2)c(CC=C(C)C)c(O)c1O | - | 29 µg/mL |
| CNC(=O)CSP(=O)(NCC(=O)OC)OC[C@@H]1CC[C@H](n2ccc(N)nc2=O)O1 | - | >100 µM |
| Cc1nc(CCCCCCC(=O)c2ccccc2)n2nc(-n3ccnc3)ccc12 | - | 26 µM |
| CC(C)Cc1ccc(C(C)C(=O)O)cc1 | - | 1000 µM |
| O=C(OC[C@H]1O[C@@H](OC(=O)c2ccccc2)[C@H](OC(=O)c2ccccc2)[C@@H](O)[C@@H]1O)c1ccccc1 | - | 25 µg/mL |
| COCOc1ccc(/C=C/C(=O)c2c(OCOC)cc(OCOC)c(CC=C(C)C)c2O)cc1OCOC | - | >100 µg/mL |
| c1cnc2c(c1)cc(CN1CCCNCCNCCCNCC1)c1cccnc12 | - | 16.1 µM |
| O=c1c(O)c(-c2ccc(O)cc2)oc2cc(O)cc(O)c12 | - | 36 µg/mL |
| O=C(O)C[C@@H]1C(=O)O[C@H]2[C@@H]3OC(=O)c4cc(O)c(O)c(O)c4-c4c(cc(O)c(O)c4O)C(=O)OC[C@H]2O[C@@H](OC(=O)c2cc(O)c(O)c(O)c2)[C@@H]3OC(=O)c2cc(O)c(O)c3c2[C@H]1[C@H](O)C(=O)O3 | - | 19.2 µg/mL |
| CCN(CC)CC.COC(=O)CNP(=O)(O)OC[C@H]1O[C@@H](n2cc(C)c(=O)[nH]c2=O)C[C@@H]1F | - | 70 µM |
| O=C(NCCNC(=O)c1cc2cc(O)c(O)cc2[nH]1)c1cc2cc(O)c(O)cc2[nH]1 | MTT | 154 µM |
| O=c1c(Oc2ccccc2)coc2cc(O)cc(O)c12 | - | >100 µg/mL |
| Nc1nccc2c1ncn2[C@@H]1C[C@H](CO)[C@@H](O)[C@H]1O | trypan blue | 1.1 µg/mL |
| Cc1cn([C@H]2C[C@H](N=[N+]=[N-])[C@@H](CO)O2)c(=O)[nH]c1=O | - | >0.01 µM |
| O=C1O[C@H]2[C@@H]3OC(=O)c4cc(O)c(O)c(O)c4-c4c(cc(O)c(O)c4O)C(=O)OC[C@H]2O[C@@H](OC(=O)c2cc(O)c(O)c(O)c2)[C@@H]3OC(=O)c2cc(O)c(O)c3c2[C@@H]2C1=CC(=O)[C@](O)(O3)C2(O)O | - | 23.6 µg/mL |
| CC(C)=CCc1c(O)cc2oc(-c3ccc(O)cc3)c(O)c(=O)c2c1O | - | 13 µg/mL |
| Cc1cc(C)cc(S(=O)(=O)c2c(C(=O)NCC(=O)NCc3ccccc3O)[nH]c3ccc(Cl)cc23)c1 | MTT | 47.3 µM |
| C=CC[C@@H]1/C=C(/C)C[C@H](C)C[C@H](OC)[C@H]2O[C@@](O)(C(=O)C(=O)N3CCCC[C@H]3C(=O)O[C@H](/C(C)=C/[C@@H]3CC[C@@H](O)[C@H](OC)C3)[C@H](C)[C@@H](O)CC1=O)[C@H](C)C[C@@H]2OC | - | 10.9 µg/mL |
| C/C(=N\NC(N)=S)c1nc2ccc(Cl)cc2[nH]1 | MTT | 2.67 µg/mL |
| CNC(=O)CSP(=O)(NCC(=O)OC)OC[C@@H]1CC[C@H](n2cc(C)c(=O)[nH]c2=O)O1 | - | 20 µM |
| Cc1ccnc2c1NC(=O)c1cccnc1N2C1CC1 | MTT | 100 µM |
| C1CNCCNCCNCCN1 | - | 20 µM |
| O=C(CCCCCCc1ncc2ccc(Cl)nn12)c1ccccc1 | - | 25 µM |
| CC(C)[C@H]1C(=O)N[C@H](CO)CCc2ccccc2N1C | - | >10 µg/mL |
| O=C1c2c(O)cc(O)cc2O[C@H](c2ccc(O)c(O)c2)[C@H]1O | - | >100 µg/mL |
| Cc1cn([C@H]2C[C@H](N=[N+]=[N-])[C@@H](CO)O2)c(=O)[nH]c1=O | - | 12 µg/mL |
| CNc1nc(N)c(C)c(C(=O)c2ccccc2)n1 | - | >25 µM |
| C[C@@H]1O[C@@H](Oc2c(-c3cc(O)c(O)c(O)c3)oc3cc(O)cc(O)c3c2=O)[C@H](O)[C@H](O)[C@H]1O | - | >100 µg/mL |
| Nc1ccn([C@H]2CC[C@@H](CO)O2)c(=O)n1 | - | 160 µM |
| Cc1cn([C@H]2C[C@H](N=[N+]=[N-])[C@@H](CO)O2)c(=O)[nH]c1=O | - | >500 µM |
| Oc1cc(O)c2c(c1)O[C@H](c1ccc(O)c(O)c1)[C@H](O)C2 | - | 72.5 µg/mL |
| CCC[C@@]1(CCc2ccccc2)CC(O)=C([C@H](CC)c2cccc(NS(=O)(=O)c3ccc(C(F)(F)F)cn3)c2)C(=O)O1 | - | 18.6 µM |
| CC(=O)c1cc(NCc2nc3c(Cl)ccc(Cl)c3o2)c(=O)[nH]c1C | - | >60 µM |
| CCOC(=O)c1cc(O)c(O)c(O)c1 | - | 8.6 µg/mL |
| Cc1cn([C@H]2C[C@H](F)[C@@H](CO)O2)c(=O)[nH]c1=O | - | 1.1 µM |
| O=C(O[C@H](Cc1ccc(O)c(O)c1)C(=O)O)C1=Cc2cc(O)c(O)cc2[C@@H](c2ccc(O)c(O)c2)[C@@H]1C(=O)O[C@H](Cc1ccc(O)c(O)c1)C(=O)O | - | 29.2 µg/mL |
| CC(C)[C@H](NC(=O)OCc1ccccc1)C(=O)N[C@@H](Cc1ccccc1)C(=O)C(F)(F)CCc1ccccn1 | - | >100 µM |
| CCCCCCCCCCc1ccc2c(c1)N(C)[C@@H](C(C)C)C(=O)N[C@H](CO)C2 | - | 10 µg/mL |
| CSc1nc(N)c(C)c(C(Cl)c2ccccc2)n1 | - | >25 µM |
| CC(C)(C)NC(=O)[C@@H]1CCCN1C(=O)[C@@H](O)[C@H](Cc1ccccc1)NC(=O)[C@H](CC(N)=O)NC(=O)COc1cccc2ccccc12 | MTT | 31 µg/mL |
| CCc1cc(NCc2nc3c(C)ccc(C)c3o2)c(=O)[nH]c1C | - | >60 µM |
| Cc1cn([C@H]2C[C@H](N=[N+]=[N-])[C@@H](CO)O2)c(=O)[nH]c1=O | MTT | >100 µM |
| CSc1nc(N)c(C)c(C(=O)c2cccc3ccccc23)n1 | - | >19.37 µM |
| Cc1cn([C@H]2C[C@H](N=[N+]=[N-])[C@@H](CO)O2)c(=O)[nH]c1=O | - | >75 µM |
| O=c1[nH]cc([C@@H]2C[C@H](O)[C@H](CO)[NH2+]2)c(=O)[nH]1 | MTT | >20 µM |
| CCCCNC(=S)N/N=C(\C)c1nc2ccc(Cl)cc2[nH]1 | MTT | 1.03 µg/mL |
| COC(=O)CNP(=O)(NCC(=O)OC)OC[C@H]1O[C@@H](n2cc(C)c(=O)[nH]c2=O)C[C@@H]1F | - | >150 µM |
| Nc1ccn([C@H]2CC[C@@H](CO)O2)c(=O)n1 | - | >100 µM |
| Cc1cn([C@H]2C[C@H](N=[N+]=[N-])[C@@H](CO)O2)c(=O)[nH]c1=O | - | 2.89 µg/mL |
| Cc1nc(CCCCCCC(=O)c2ccccc2)n2ncccc12 | - | 280 µM |
| Cc1ccnc2c1NC(=O)c1cccnc1N2C1CC1 | MTT | >150 µM |
| CCOCn1c(Cc2cc(C)cc(C)c2)c(CC)c(=O)[nH]c1=O | MTT | >100 µg/mL |
| CCc1cc(NCc2nc3c(Cl)ccc(Cl)c3o2)c(=O)[nH]c1C | - | >10 µM |
| CCOCn1c(Sc2cc(C)cc(C)c2)c(C(C)C)c(=O)[nH]c1=S | - | >50 µM |

A second listing of 10 rows from above:

structure	method	result
C(CCC1CNCCNCCCNCCNC1)CCC1CNCCNCCCNCCNC1	-	200 µM
O=c1c(Oc2ccccc2)coc2cc(O)cc(O)c12	-	>100 µg/mL
C1CNCCNCCNCCN1	-	20 µM
Cc1cn([C@H]2C[C@H](N=[N+]=[N-])[C@@H](CO)O2)c(=O)[nH]c1=O	-	12 µg/mL
COCOc1ccc(/C=C/C(=O)c2c(OCOC)cc(OCOC)c(CC=C(C)C)c2O)cc1OCOC	-	>100 µg/mL
CCN(CC)CC.COC(=O)CNP(=O)(O)OC[C@H]1O[C@@H](n2cc(C)c(=O)[nH]c2=O)C[C@@H]1F	-	70 µM
COc1ccc2cc([C@H](C)C(=O)O)ccc2c1	-	1000 µM
CSc1nc(N)c(C)c(C(Cl)c2ccccc2)n1	-	>25 µM
Cc1nc(CCCCCCC(=O)c2ccccc2)n2ncccc12	-	280 µM
CSc1nc(N)c(C)c(C(=O)Cc2ccccc2)n1	-	>25 µM